Measurements reported in PubChem BioAssay AID1259414 (Drosophila RNAi Screening Center, 2018).
In all, the deposit lists about 24,000 reagents; shown is an unselected part of those with a known target gene and a result. In the full data, about 1,210 (5%) are marked active. 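Inactive calls also include excluded dsRNAs with several or no targets, genes unexpressed in JW18, and well A1, regardless of score.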 Entries without a mark were called inactive. The numbers tell different reagents against one gene apart. Names joined by + are all predicted targets of the reagent.

- Assay: 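Genome-wide screen for host control of endosymbiont load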 (primary screen)
- System: Drosophila JW18 cells infected with Wolbachia
- Knock-down reagent: long dsRNA against Drosophila genes, 0.25 µg dsRNA per well of a 384-well plate
- Duration: 5 days
- Treatment: cells persistently infected with Wolbachia before knock-down; no added drug
- Measured: 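Imaged fluorescence in situ signal for Wolbachia 23S rRNA per DAPI-counted host cell, given as a robust z-score within each plate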
- Scale: Wolbachia per cell robust z: higher = more Wolbachia per host cell than the plate typical
- Rule for the call: 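Hit when robust z is 1.5 or more, or -1.5 or less, in at least two of three replicates; excludes dsRNAs with several or no targets, genes not expressed in JW18 and well A1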

| gene | reagent | Wolbachia per cell robust z, rep 1 | Wolbachia per cell robust z, rep 2 | Wolbachia per cell robust z, rep 3 |
| --- | --- | --- | --- | --- |
| CG9970 (GeneID 38351) | 1 | -0.758 | -1.03 | -0.406 |
| CG8112 (GeneID 41033) | 1 | 0.349 | 0.607 | -0.365 |
| CG13070 (GeneID 39782) | 1 | 0.269 | 1.37 | 0.637 |
| dgt4 (GeneID 31361) | 1 | -4.24 | 0.169 | -0.664 |
| dgt4 (GeneID 31361) | 2 | 0.203 | 0.244 | 1.11 |
| CG30378 (GeneID 246577) | 1 | -4.43 | -0.836 | -1.28 |
| agt (GeneID 40816) | 1 | -0.133 | 0.551 | 0.818 |
| tsr (GeneID 37841) | 1 | 0.702 (active) | 2.37 | 1.85 |
| tsr (GeneID 37841) | 2 | -0.991 | 0.0866 | 0.0365 |
| CG15814 (GeneID 32765) | 1 | 0.224 | 0.774 | 0.194 |
| CG3021 (GeneID 53546) | 1 | -0.459 | 0.617 | -1.4 |
| CG3021 (GeneID 53546) | 2 | 0.174 | -1.29 | -5.06 |
| CG10089 (GeneID 39517) | 1 | -0.342 | 0.168 | -0.796 |
| CG10089 (GeneID 39517) | 2 | -0.158 | 2.79 | 0.0422 |
| CG10089 (GeneID 39517) | 3 | 0.822 | -1.49 | 0.879 |
| CG34011 (GeneID 3885619) | 1 | -1.77 | -0.777 | -2.3 |
| fsd (GeneID 36463) | 1 | -0.695 | -1.43 | -0.341 |
| PIG-K (GeneID 31163) | 1 | -0.261 | -1.73 | -0.402 |
| CG15336 (GeneID 31742) | 1 | 0.0906 | -0.903 | 0.585 |
| CG15336 (GeneID 31742) | 2 | 0.575 | -0.456 | -1.73 |
| CG12011 (GeneID 38211) | 1 | -1.26 | -0.193 | -0.217 |
| CG12011 (GeneID 38211) | 2 | -0.517 | 0.71 | 0.172 |
| Nepl5 (GeneID 33892) | 1 | -6.36 | 0.579 | -0.496 |
| Nepl5 (GeneID 33892) | 2 | -0.377 | 0.546 | -0.738 |
| Tsen15 (GeneID 246551) | 1 | 0.311 | -0.616 | -0.646 |
| MESR3 (GeneID 35116) | 1 | 0.29 | 1.83 | -1.29 |
| CG31111 (GeneID 318595) | 1 | 0.0177 | 0.255 | -0.634 |
| Slob (GeneID 34038) | 1 | 0.186 | -0.919 | -4.68 |
| Slob (GeneID 34038) | 2 | 0.963 | -0.925 | -0.0995 |
| CG7565 (GeneID 38893) | 1 | 0.11 | -0.141 | -1.42 |
| bs (GeneID 37890) | 1 | 0.142 | 0.0587 | 0.894 |
| bs (GeneID 37890) | 2 | 0.724 | 0.332 | 0.587 |
| snoRNA:Psi28S-2949 + Uhg4 | 1 | -0.313 | -1.96 | -1.18 |
| CG11663 (GeneID 31036) | 1 | 0.788 | 0 | 1.02 |
| CG10472 (GeneID 38688) | 1 | -0.704 | -0.695 | 0.716 |
| CG10472 (GeneID 38688) | 2 | -0.911 | -1.72 | -0.983 |
| CG9682 (GeneID 43602) | 1 | -1.07 | 0.842 | -0.163 |
| CG9682 (GeneID 43602) | 2 | 0.122 | -0.619 | 0.209 |
| axed (GeneID 38741) | 1 | 0.145 | 0.00918 | -0.796 |
| axed (GeneID 38741) | 2 | 0.496 | -1.31 | -0.286 |
| Lamtor5 (GeneID 31137) | 1 | -1.48 (active) | -3.38 | -2.14 |
| Oatp33Eb (GeneID 34662) | 1 | 1.79 | -0.651 | 1.16 |
| CG10280 (GeneID 40740) | 1 | 0.471 | -1.63 | 0.0646 |
| CG10280 (GeneID 40740) | 2 | -0.844 | 0.268 | 0.87 |
| boly (GeneID 35809) | 1 | 0.809 | 0.824 | -1.53 |
| IleRS (GeneID 45785) | 1 | -1.78 | -0.444 | -0.883 |
| Aldh-III (GeneID 45398) | 1 | 0.308 (active) | -3.7 | -3.26 |
| Aldh-III (GeneID 45398) | 2 | -2.28 (active) | -1.82 | -1.76 |
| PTPMT1 (GeneID 42807) | 1 | 0.592 (active) | -2.13 | -1.64 |
| nSMase (GeneID 38396) | 1 | 0.677 | 0.354 | 0.756 |
| nSMase (GeneID 38396) | 2 | -1.96 | 0.249 | 0.576 |
| CG7728 (GeneID 39904) | 1 | -0.974 | 0.192 | -2.92 |
| CG7728 (GeneID 39904) | 2 | 0.681 | 0.881 | 0.303 |
| dsb (GeneID 38252) | 1 | -0.755 | -0.051 | 0.843 |
| CG13739 (GeneID 35957) | 1 | -0.364 | -0.068 | 0.261 |
| CG13739 (GeneID 35957) | 2 | 0.436 | 0.177 | 0.218 |
| Gpxl (GeneID 37194) | 1 | 0.827 | -3.18 | 0.359 |
| CG31524 (GeneID 318781) | 1 | 0.85 | 0.894 | 0.163 |
| CG31524 (GeneID 318781) | 2 | -0.441 | -0.433 | -2.31 |
| BomS5 (GeneID 50207) | 1 | 0.368 | 0.407 | 0.505 |
| CG13160 (GeneID 36343) | 1 | -1.01 | 0.672 | -0.409 |
| CG7514 (GeneID 38571) | 1 | 0.401 | 1.04 | -5.54 |
| CG7514 (GeneID 38571) | 2 | 0.387 | 1.4 | 0.395 |
| CG5402 (GeneID 43306) | 1 | -1.45 | -1.27 | 0.401 |
| CG5402 (GeneID 43306) | 2 | 1.01 | -0.639 | -0.648 |
| Abcd1 (GeneID 43772) | 1 | -0.0938 | 0.698 | -1.22 |
| dac (GeneID 34982) | 1 | -7.48 (active) | -1.18 | -8.61 |
| CG31313 (GeneID 318677) | 1 | 0.783 | 0.678 | 0.437 |
